# Source: paper PMC5434880, “Monitoring influenza virus susceptibility to oseltamivir using a new rapid assay, iART” (2017)
# Tested on: NA of A/Mississippi/03/2001 (H1N1)
# Assay: CDC standardised fluorescence-based NA inhibition assay, virus isolate
# Conditions: read-out: NAI assay^c / IC50, nM (fold)^d; whole virus; NAI inhibitor printed as oseltamivir
compound,measurement,value
CCC(CC)O[C@@H]1C=C(C(=O)O)C[C@H](N)[C@H]1NC(C)=O,IC50,0.39 nM
